Results of unrelated studies side by side (data: NIAID ChemDB).

Common to all: host cell toxicity; cell line: HepG2; measure: CC50

CCn is the concentration with n% toxicity to the cells.

{"compound": "CCCCCN=C(N)c1ccc(N2CCN(c3ccc(C(N)=NCCCCC)cc3)CC2)cc1", "result": ">0.14 µg/mL"}
{"compound": "Clc1ccc2c(NCCCCNc3nc(Nc4ccccc4)nc(N4CCOCC4)n3)ccnc2c1", "result": "33.2 µM"}
{"compound": "O=C(Oc1ccc(Cl)cc1C(=O)Nc1cccc(C(F)(F)F)c1)c1cnccn1", "result": "6.28 µM"}
{"compound": "Cc1cn([C@@H]2O[C@H](COP(=O)(N[C@@H](C)C(=O)OC(C)C)Oc3ccccc3)C(F)(F)C2(F)F)c(=O)[nH]c1=O", "result": ">100 µM"}
{"compound": "OCCCNc1nc(NCCCCNc2ccnc3cc(Cl)ccc23)nc(N2CCCCC2)n1", "result": "28.4 µM"}
{"compound": "O=C(Oc1cc(Cl)ccc1C(=O)Nc1ccc(C(F)(F)F)cc1)c1cnccn1", "result": "3.68 µM"}
{"compound": "Nc1nc2c(ncn2[C@@H]2C[C@@H](F)[C@H](CO)O2)c(=O)[nH]1", "result": ">200 µM"}
{"compound": "CCN=C(N)c1ccc(N2CCN(c3ccc(C(N)=NCC)cc3)CC2)cc1", "result": ">54.2 µg/mL"}
{"compound": "Nc1nc2c(ncn2[C@H]2CO[C@@H](CO)O2)c(=O)[nH]1", "result": "<25 µM"}
{"compound": "Nc1cn([C@@H]2C[C@H](O)[C@@H](CO)O2)c(=O)nc1N", "result": ">10 µM"}
{"compound": "CCOC(=O)CCCCCOc1cccc(CN(C(=O)c2ccc(-c3ccc(C(C)=O)s3)cc2)C(C)C)c1", "result": ">20 µM"}
{"compound": "Nc1ncnc2c1ncn2[C@@H]1O[C@H](CO)C(F)(F)C1(F)F", "result": ">100 µM"}
{"compound": "COc1c(C)c2c(c(O)c1C/C=C(\\C)CCC(=O)O)C(=O)OC2", "result": "~40 µM"}
{"compound": "Nc1nc2c(ncn2[C@@H]2O[C@H](CO)C(F)(F)C2(F)F)c(=O)[nH]1", "result": ">100 µM"}
{"compound": "CCOC(=O)CCCCCOc1cccc(CN(C(=O)c2ccc(-c3cccc(Br)c3)cc2)C(C)C)c1", "result": ">20 µM"}
{"compound": "CCc1ccc(Nc2nc(NCCCCNc3ccnc4cc(Cl)ccc34)nc(N3CCOCC3)n2)cc1", "result": "31.8 µM"}
{"compound": "Cc1cn([C@@H]2O[C@H](CO)C(F)(F)C2(F)F)c(=O)[nH]c1=O", "result": ">100 µM"}
{"compound": "NC(=NC1CCCCCCC1)c1ccc(N2CCN(c3ccc(C(N)=NC4CCCCCCC4)cc3)CC2)cc1", "result": ">1.95 µg/mL"}
{"compound": "Nc1nc(=O)n(C2CC[C@@H](CO)O2)cc1[N+](=O)[O-]", "result": ">10 µM"}
{"compound": "CCCCCCCCN=C(N)c1ccc(N2CCN(c3ccc(C(N)=NCCCCCCCC)cc3)CC2)cc1", "result": "2.23 µg/mL"}
{"compound": "CCCN(Cc1cccc(OCCCCCC(=O)OCC)c1)C(=O)c1ccc(-c2ccc3c(c2)OCO3)cc1", "result": ">20 µM"}
{"compound": "N/C(=N\\O)c1ccc(N2CCN(c3ccc(/C(N)=N/O)cc3)CC2)cc1", "result": "169.3 µM"}
{"compound": "COc1ccc(C(O)C(Br)N=[N+]=[N-])cc1OC", "result": "<13.5 µM"}
{"compound": "Nc1nc(=O)n([C@H]2C[C@H](O)[C@@H](CO)O2)cc1[N+](=O)[O-]", "result": ">10 µM"}
{"compound": "CNC(=O)CCCC(=O)N[C@@H](CC(C)C)C(=O)N[C@@H](CC(C)C)C(=O)NCC(=O)CNC(=O)[C@H](CC(C)C)NC(=O)[C@H](CC(C)C)NC(=O)c1ccc(C(=O)c2ccccc2)cc1", "result": ">10 µM"}
{"compound": "O=c1ccn([C@@H]2O[C@H](CO)C(F)(F)C2(F)F)c(=O)[nH]1", "result": ">100 µM"}
{"compound": "CN=C(N)c1ccc(N2CCN(c3ccc(C(N)=NC)cc3)CC2)cc1", "result": "361 µM"}
{"compound": "Nc1nc(=O)n([C@@H]2C[C@H](O)[C@@H](CO)O2)cc1[N+](=O)[O-]", "result": ">10 µM"}
{"compound": "C[C@H](NC(=O)[C@@H](O)c1cc(F)cc(F)c1)C(=O)N[C@@H]1C(=O)N(C)c2ccccc2-c2ccccc21", "result": ">10 µM"}
{"compound": "C=CCC1=CCCc2cc(OC)c(OC)cc21", "result": "<7.5 µM"}
{"compound": "O=C(Oc1ccc(Br)cc1C(=O)Nc1ccc(C(F)(F)F)cc1)c1cnccn1", "result": "8.02 µM"}

4 of the rows above, restated:

{"compound": "CCCN(Cc1cccc(OCCCCCC(=O)OCC)c1)C(=O)c1ccc(-c2ccc3c(c2)OCO3)cc1", "result": ">20 µM"}
{"compound": "Cc1cn([C@@H]2O[C@H](COP(=O)(N[C@@H](C)C(=O)OC(C)C)Oc3ccccc3)C(F)(F)C2(F)F)c(=O)[nH]c1=O", "result": ">100 µM"}
{"compound": "Nc1nc2c(ncn2[C@@H]2C[C@@H](F)[C@H](CO)O2)c(=O)[nH]1", "result": ">200 µM"}
{"compound": "O=c1ccn([C@@H]2O[C@H](CO)C(F)(F)C2(F)F)c(=O)[nH]1", "result": ">100 µM"}

Lines come from different laboratories, so protocols vary.